Test system: L. major Luciferase promastigotes
Assay: Antiparasitic activity in L. major Luciferase promastigotes
Assay type: cell-based, Leishmania major
Conditions: TI versus macrophage LD50
Description: IC50 is median inhibitory concentration. TI is therapeutic index.

Structure (SMILES)	L. major Promastigotes [TI] (therapeutic index)
CCOC(=O)c1c(NC(=O)c2ccc([N+](=O)[O-])s2)sc2c1CC(C)(C)NC2(C)C [RS2, ethyl 5,5,7,7-tetramethyl-2-(5-nitrothiophene-2-carboxamido)-4,5,6,7-tetrahydrothieno[2,3-c]pyridine-3-carboxylate]	3.2
CCOC(=O)c1c(NC(=O)c2cccc(C(F)(F)F)c2F)sc2c1CC(C)(C)NC2(C)C [GP1-04, Ethyl 2-(2-fluoro-3-(trifluoromethyl)benzamido)-5,5,7,7-tetramethyl-4,5,6,7-tetrahydrothieno[2,3-c]pyridine-3-carboxylate]	100.59
CCOC(=O)c1c(NC(=O)c2ccc(F)c(C(F)(F)F)c2)sc2c1CC(C)(C)NC2(C)C [GP1-05, Ethyl 2-(4-fluoro-3-(trifluoromethyl)benzamido)-5,5,7,7-tetramethyl-4,5,6,7-tetrahydrothieno[2,3-c]pyridine-3-carboxylate]	28.20
CCOC(=O)c1c(NC(=O)c2cccc(C(F)(F)F)c2)sc2c1CC(C)(C)NC2(C)C [RS3, Ethyl 5,5,7,7-tetramethyl-2-(3-(trifluoromethyl)benzamido)-4,5,6,7-tetrahydro-thieno[2,3-c]pyridine-3-carboxylate]	4.20
CCOC(=O)c1c(NC(=O)c2c(F)c(F)c(F)c(F)c2F)sc2c1CC(C)(C)NC2(C)C [RS4, Ethyl 5,5,7,7-tetramethyl-2-(perfluorobenzamido)-4,5,6,7-tetrahydrothieno[2,3c]pyridine-3-carboxylate]	22.35

Reference: patent publication US9988395B2, “Antiparasitic compositions and methods utilizing substituted 5,5,7,7-tetramethyl-4,5,6,7-tetrahydrothieno[2,3-C]pyridine derivatives” (THE BOARD OF REGENTS OF THE UNIVERSITY OF TEXAS SYSTEM, priority 2015, dated 2018)
